Measured values from several laboratories, pooled; numbers as filed in NIAID ChemDB.

Shared fields: tests in culture; organism: Cryptococcus neoformans

Blank or dashed fields: not listed here. MIC50, MIC90 and the like: level of inhibition, or share of isolates inhibited. Lines come from different laboratories, so protocols vary.

smiles,read by,endpoint,strain,value
C[C@@H](n1ncn(-c2ccc(OCC(F)(F)C(F)F)cc2)c1=O)[C@](O)(Cn1cncn1)c1ccc(F)cc1F,-,MFC,DUMC 133.95,1 µg/mL
CCOC(=O)c1c(C)nc(NCCCCNc2ccnc3cc(Cl)ccc23)nc1-c1ccc(F)cc1,-,MIC,ATCC 24067,5.7 µg/mL
O=C1/C(=C/c2ccccc2)CSc2ccc(Cl)cc21,-,MIC,Farwania,6 µg/mL
COc1ccccc1-c1c(C#N)c(OC)nc2c1CSc1ccccc1-2,-,MIC,93/V,25 µg/mL
C=CC[C@@H]1/C=C(/C)C[C@H](C)C[C@H](OC)[C@H]2O[C@@](O)(C(=O)C(=O)N3CCCC[C@H]3C(=O)O[C@H](/C(C)=C/[C@@H]3CC[C@@H](O)[C@H](OC)C3)[C@H](C)[C@@H](O)CC1=O)[C@H](C)C[C@@H]2OC,-,MIC,C21F3,25 µg/mL
CCC(C)n1ncn(-c2ccc(N3CCN(c4ccc(OC[C@H]5CO[C@](Cn6cncn6)(c6ccc(Cl)cc6Cl)O5)cc4)CC3)cc2)c1=O,broth dilution,MIC,Clinical isolate (IM 031631),<0.015 µg/mL
O=[N+]([O-])c1ccc(C=Nc2ccccc2O)cc1,-,MIC,Broth microdilution,11.3 µg/mL
CN[C@H]1CC[C@@H](c2ccc(Cl)c(Cl)c2)c2ccccc21,broth dilution,MIC90,H99,6 µg/mL
C[C@@H](n1cnc2cc(Cl)ccc2c1=O)[C@](O)(Cn1cncn1)c1ccc(F)cc1F,-,MFC,Isolate 123.96,20 µg/mL
CCOc1nc2c(c(-c3ccc4ccccc4c3)c1C#N)CSc1ccc(Cl)cc1-2,-,MIC,93/V,50 µg/mL
O=C1/C(=C/c2ccc(O)c(O)c2)CCc2ccccc21,-,MIC,25,100 µg/mL
N#CC1=C(N)OC2=C(CSc3ccc(Cl)cc32)C1c1cccc2ccccc12,-,MIC,25,25 µg/mL
COC1CC2CCC(C)C(O)(O2)C(O)C(O)N2CCCCC2C(=O)OC(C(C)CC2CCC(O)C(OC)C2)CC(=O)C(C)/C=C(\C)C(O)C(OC)C(=O)C(C)CC(C)/C=C/C=C/C=C/1C,-,MIC,FRR1,>100 µg/mL
CCC(C)n1ncn(-c2ccc(N3CCN(c4ccc(OC[C@H]5CO[C@](Cn6cncn6)(c6ccc(Cl)cc6Cl)O5)cc4)CC3)cc2)c1=O,-,MIC,DUMC100.91,0.008 µg/mL
COC1CC2CCC(C)C(O)(O2)C(=O)C(=O)N2CCCCC2C(=O)OC(C(C)CC2CCC(O)C(OC)C2)CC(=O)C(C)/C=C(\C)C(O)[C@@](OC)(N(O)C(=O)OCC(C)C)C(=O)C(C)CC(C)/C=C/C=C/C=C/1C,-,MIC,FRR1,>100 µg/mL
Oc1ccccc1N=Cc1cccc(O)c1O,-,MIC99,LMM 820,4 µg/mL
COc1nc2c(c(-c3ccccc3)c1C#N)CSc1ccccc1-2,-,MIC,Farwania,6 µg/mL
COc1ccc2c(c1)C(=O)/C(=C/c1ccccc1OC)CO2,-,MIC,25,3 µg/mL
Oc1ccccc1N=Cc1ccccc1,-,MIC99,LMM 820,5.7 µg/mL
C[C@H]1[C@H](O)[C@@H](C)/C=C/C=C/C=C/C=C/C=C/C=C/C=C/[C@H](O[C@@H]2O[C@H](C)[C@@H](O)[C@H](N)[C@@H]2O)C[C@@H]2O[C@](O)(C[C@@H](O)C[C@@H](O)CC[C@H](O)[C@@H](O)C[C@@H](O)CC(=O)O[C@H]1C)C[C@H](O)[C@H]2C(=O)O,-,MIC90,32 isolates,0.25 µg/mL
COc1ccccc1/C=C1\COc2ccc(-c3ccccc3)cc2C1=O,-,MIC,93/V,50 µg/mL
N#CC1=C(N)OC2=C(CSc3ccc(Cl)cc32)C1c1ccccc1,-,MIC,25,12.5 µg/mL
CCOC(=O)c1c(C)nc(NCCCCNc2ccnc3cc(Cl)ccc23)nc1-c1ccccc1[N+](=O)[O-],-,MIC,ATCC 24067,5.7 µg/mL
CCC(C)CC(C)CCCCCCCCC(=O)N[C@H]1C[C@@H](O)[C@H](NCCN)NC(=O)[C@@H]2[C@@H](O)CCN2C(=O)[C@H]([C@H](O)CCN)NC(=O)[C@H]([C@H](O)[C@@H](O)c2ccc(O)cc2)NC(=O)[C@@H]2C[C@@H](O)CN2C(=O)[C@H]([C@@H](C)O)NC1=O,broth dilution,MIC,B 32287,16 µg/mL
COc1ccc(C2C(C#N)=C(N)OC3=C2CSc2ccccc23)cc1,-,MIC,93/V,5 µg/mL
Oc1ccccc1N=Cc1ccc2c(c1)OCO2,-,MIC99,F-10,11.3 µg/mL
COc1ccc(/C=C2\CCc3ccccc3C2=O)cc1,-,MIC,93/V,100 µg/mL
Cn1nc(Cc2ccc(Cl)cc2)c2ccccc2c1=O,broth dilution,MIC80,Clinical isolate (IM 031633),7.8 µg/mL
O=C1/C(=C/c2ccc(-c3ccccc3)cc2)CSc2ccccc21,-,MIC,Farwania,25 µg/mL
Oc1cccc(C=Nc2ccccc2O)c1,broth dilution,MIC,5396,5.7 µg/mL
COc1ccc(/C=C2\COc3ccccc3C2=O)cc1OC,-,MIC,Farwania,25 µg/mL
COc1ccc(-c2c(C#N)c(OC)nc3c2CSc2ccc(Cl)cc2-3)cc1OC,-,MIC,25,6 µg/mL
Oc1ccc(O)c(C=Nc2ccccc2O)c1,-,MIC99,F-10,11.3 µg/mL
C[C@H]([C@](O)(Cn1cncn1)c1ccc(F)cc1F)S(C)(=O)=O,-,MIC,R716 (AZOLE-R),5 µM

A second listing of 4 rows from above:

{"smiles": "COc1ccc2c(c1)C(=O)/C(=C/c1ccccc1OC)CO2", "endpoint": "MIC", "strain": "25", "value": "3 µg/mL"}
{"smiles": "C[C@H]1[C@H](O)[C@@H](C)/C=C/C=C/C=C/C=C/C=C/C=C/C=C/[C@H](O[C@@H]2O[C@H](C)[C@@H](O)[C@H](N)[C@@H]2O)C[C@@H]2O[C@](O)(C[C@@H](O)C[C@@H](O)CC[C@H](O)[C@@H](O)C[C@@H](O)CC(=O)O[C@H]1C)C[C@H](O)[C@H]2C(=O)O", "endpoint": "MIC90", "strain": "32 isolates", "value": "0.25 µg/mL"}
{"smiles": "N#CC1=C(N)OC2=C(CSc3ccc(Cl)cc32)C1c1cccc2ccccc12", "endpoint": "MIC", "strain": "25", "value": "25 µg/mL"}
{"smiles": "C[C@@H](n1cnc2cc(Cl)ccc2c1=O)[C@](O)(Cn1cncn1)c1ccc(F)cc1F", "endpoint": "MFC", "strain": "Isolate 123.96", "value": "20 µg/mL"}